Compound potency records, mixed from different reports. Data source: NIAID ChemDB in PubChem.

Common to all: host cell toxicity; cell line: MT-4; endpoint: CC50

Conditions beyond the fields shown may differ between rows. An empty or dashed field is not shown. CCn is the concentration with n% toxicity to the cells.

| SMILES | read by | value |
|---|---|---|
| N#Cc1cc(Cl)cc(Oc2cc(F)c(Cl)c(OCc3nnc4n(O)cccc3-4)c2)c1 | microscopy | >20 µM |
| Cc1ccnc2c1NC(=O)c1cccnc1N2C1CC1 | MTT | >4 µg/mL |
| COC(=O)C(Cc1ccccc1)NC(=O)CCCN1C(=O)c2ccccc2C1=O | MTT | 37.82 µM |
| COc1cc(/C=C/c2nc(NC(=S)Nc3cccc([N+](=O)[O-])c3)c3ccccc3n2)cc(OC)c1OC | MTT | 3.07 µg/mL |
| COc1ccc(CN(CC(O)C(Sc2ccccc2)N(Cc2ccc(OC)cc2)C(=O)OCC(C)C)C(=O)OCC(C)C)cc1 |  | 50 µM |
| S=c1nc[nH]c2nc(-c3ccccn3)c(-c3ccccn3)nc12 | MTT / absorbance | 115 µM |
| NC(=O)/C(=C\c1ccc(Cl)cc1)n1nnc2ccccc21 |  | 16 µM |
| CCN1C(=O)c2cccn2S(=O)(=O)c2cc(Cl)ccc21 |  | >200 µM |
| COc1cccc2c1nc(-c1ccccc1F)n2Cc1ccccc1 |  | 25.9 µg/mL |
| O=C1CSC(c2ccc(Cl)cc2)N1Cc1ccco1 |  | 43.54 µM |
| O=C(CC1Nc2ccccc2S(=O)(=O)n2cccc21)Oc1ccc(Cl)cc1 |  | 185 µM |
| N#Cc1cc(Cl)cc(Oc2cc(OCc3[nH]nc4ncccc34)cc(F)c2Cl)c1 | microscopy | >20 µM |
| O=C(CCCN1C(=O)c2ccccc2C1=O)NC(=S)NC(CS)C(=O)O | MTT | 90.9 µM |
| COc1cc(/C=C/c2nc(NC(=S)Nc3ccccc3)c3ccccc3n2)cc(OC)c1OC | MTT | 5.66 µg/mL |
| Cc1ccccc1S(=O)(=O)c1c(C(=O)NCCO)[nH]c2ccc(Cl)cc12 | MTT | >100 µM |
| CC(=O)c1ccccc1N[C@H](C(N)=O)c1c(Cl)cccc1Cl |  | 52 µM |
| CCCCCCCCCCCCO[C@@H]1O[C@H](COS(=O)(=O)O)[C@@H](OS(=O)(=O)O)[C@H](O[C@@H]2O[C@H](COS(=O)(=O)O)[C@@H](OS(=O)(=O)O)[C@H](O[C@@H]3O[C@H](COS(=O)(=O)O)[C@@H](OS(=O)(=O)O)[C@H](O[C@@H]4O[C@H](COS(=O)(=O)O)[C@@H](OS(=O)(=O)O)[C@H](OS(=O)(=O)O)[C@H]4OS(=O)(=O)O)[C@H]3OS(=O)(=O)O)[C@H]2OS(=O)(=O)O)[C@H]1OS(=O)(=O)O |  | >1000 µg/mL |
| COc1cccc2c1nc(-c1ccccc1F)n2CCC(C)C |  | 12.57 µg/mL |
| COc1ccc(CN(CC(O)C(Sc2ccccc2)N(Cc2ccc(OC)cc2)C(=O)N(C)c2ccccc2)C(=O)N(C)c2ccccc2)cc1 |  | 10 µM |
| Clc1nccc2nc(-c3cccs3)cnc12 | MTT / absorbance | 5.23 µM |
| Cc1cc(OCCN(C)C)ccc1NC(=O)COc1ccc(Cl)c(Oc2cc(Cl)cc(C#N)c2)c1 | microscopy | >20 µM |
| N#CCC1Nc2ccccc2S(=O)(=O)n2cccc21 |  | >366 µM |
| Clc1nccc2nc(-c3ccccn3)c(-c3ccccn3)nc12 | MTT / absorbance | 67.36 µM |
| CCOC(=O)c1cccn1S(=O)(=O)c1cc(Cl)ccc1NC(=O)Oc1ccc(C)cc1 |  | >200 µM |
| N#Cc1cc(Cl)cc(Oc2cc(OCc3[nH]nc4nc(N)ccc34)cc(F)c2Cl)c1 | microscopy | >20 µM |
| [N-]=[N+]=N[C@H]1C[C@@H](CO)O[C@H]1n1cnc2c(NC3CCCCC3)ncnc21 |  | >125 µg/mL |
| N#C/C(=C\c1cccc(F)c1)n1nnc2ccccc21 |  | 3.6 µM |
| CCOC(=O)C1c2cccn2N(C)c2ccccc2N1C(=O)CCl |  | 6.3 µM |
| Fc1ccccc1-c1nc(-c2nnc(C34CCC5CC(CC3C5)C4)o2)cs1 | MTT | ≥97.6 µM |
| O=C(OCc1ccccc1)N(Cc1ccccc1)CC(O)C(Sc1ccccc1)N(Cc1ccccc1)C(=O)OCc1ccccc1 |  | 100 µM |
| CC(=O)c1ccccc1NC(C(N)=O)c1c(Cl)cccc1Cl |  | 130 µM |
| COc1ccccc1NC(=S)Nc1nc(/C=C/c2cc(OC)c(OC)c(OC)c2)nc2ccccc12 | MTT | 3.42 µg/mL |
| O=C(CCCN1C(=O)c2ccccc2C1=O)NC(=S)NC(CO)C(=O)O | MTT | 89.5 µM |
| COc1ccc(NC(=O)Nc2nc(/C=C/c3cc(OC)c(OC)c(OC)c3)nc3ccccc23)cc1 | MTT | 1.88 µg/mL |
| CCCCCCO[C@@H]1O[C@H](COS(=O)(=O)O)[C@@H](OS(=O)(=O)O)[C@H](O[C@@H]2O[C@H](COS(=O)(=O)O)[C@@H](OS(=O)(=O)O)[C@H](O[C@@H]3O[C@H](COS(=O)(=O)O)[C@@H](OS(=O)(=O)O)[C@H](O[C@@H]4O[C@H](COS(=O)(=O)O)[C@@H](OS(=O)(=O)O)[C@H](O[C@@H]5O[C@H](COS(=O)(=O)O)[C@@H](OS(=O)(=O)O)[C@H](OS(=O)(=O)O)[C@H]5OS(=O)(=O)O)[C@H]4OS(=O)(=O)O)[C@H]3OS(=O)(=O)O)[C@H]2OS(=O)(=O)O)[C@H]1OS(=O)(=O)O |  | >1000 µg/mL |
| COc1ccccc1CCNC(=S)NC(=O)c1csc(-c2ccccc2)n1 | MTT | 11.72 µM |
| CNC(=O)CC1(C(=O)NC)Nc2ccccc2S(=O)(=O)n2cccc21 |  | >255 µM |
| Cc1c(C(C)c2c(F)cccc2F)nc(NN2CCCCCC2)[nH]c1=O | MTT | >72 µM |
| COc1cccc2c1nc(-c1ccccc1F)n2CC=C(Cl)Cl |  | 45.3 µg/mL |
| CS(=O)(=O)c1ccc(NC(=O)COc2ccc(Cl)c(Oc3cc(Cl)cc(C#N)c3)c2)c(Cl)c1 | microscopy | >20 µM |
| O=C1CSC(c2c(F)cccc2F)N1Cc1ccco1 |  | 208 µM |
| O=c1[nH]cnc2nc(-c3ccccn3)c(-c3ccccn3)nc12 | MTT / absorbance | 50.52 µM |
| O=C(O[C@H]1CCOC1)N(Cc1ccccc1)CC(O)C(Sc1ccccc1)N(Cc1ccccc1)C(=O)O[C@H]1CCOC1 |  | 50 µM |
| CS(=O)(=O)c1ccc2c(c1)CCN2C(=O)COc1ccc(Cl)c(Oc2cc(Cl)cc(C#N)c2)c1 | microscopy | >20 µM |
| N#C/C(=C\c1ccc(Br)cc1)n1nc2ccccc2n1 |  | 3 µM |
| CCOC(=O)c1cccn1S(=O)(=O)c1ccc(N)cc1 |  | >200 µM |
| COc1cccc2c1nc(-c1ccccc1F)n2Cc1cccc(C#N)c1 |  | 9.5 µg/mL |
| COc1cc(/C=C/c2nc(NC(=O)Nc3ccccc3C)c3ccccc3n2)cc(OC)c1OC | MTT | 1.89 µg/mL |
| COc1cccc2c1nc(-c1ccccc1F)n2Cc1ccc(C#N)cc1 |  | 25.3 µg/mL |
| O=c1[nH]c(=S)c2nc(-c3ccccn3)c(-c3ccccn3)nc2[nH]1 | MTT / absorbance | 112 µM |
| COC(=O)C(C)NC(=O)CCCN1C(=O)c2ccccc2C1=O | MTT | 101 µM |
| COc1cccc2c1nc(-c1ccccc1F)n2Cc1ccc2ccccc2c1 |  | >4 µg/mL |
| CSCC[C@H](C)OC(=O)[C@@H](N)c1ccccc1-c1c[nH]c2ccccc12 | MTT | 15 µM |
| N#C/C(=C\c1ccc[nH]1)n1nnc2ccccc21 |  | >100 µM |
| CSCC[C@H](C(=O)N1CCNC[C@@H]1c1c[nH]c2ccccc12)N1CCCN(C(C)C)CC1 | MTT | >50 µM |
| COCCOCCOCCOCCO[C@@H]1O[C@H](COS(=O)(=O)O)[C@@H](OS(=O)(=O)O)[C@H](O[C@@H]2O[C@H](COS(=O)(=O)O)[C@@H](OS(=O)(=O)O)[C@H](O[C@@H]3O[C@H](COS(=O)(=O)O)[C@@H](OS(=O)(=O)O)[C@H](O[C@@H]4O[C@H](COS(=O)(=O)O)[C@@H](OS(=O)(=O)O)[C@H](O[C@@H]5O[C@H](COS(=O)(=O)O)[C@@H](OS(=O)(=O)O)[C@H](OS(=O)(=O)O)[C@H]5OS(=O)(=O)O)[C@H]4OS(=O)(=O)O)[C@H]3OS(=O)(=O)O)[C@H]2OS(=O)(=O)O)[C@H]1OS(=O)(=O)O |  | >1000 µg/mL |
| c1ccc(C2SCc3nc4ccccc4n32)cc1 |  | 19.2 µM |
| O=S1(=O)c2ccccc2-n2cnnc2-c2cccn21 |  | >367 µM |
| CCCCCCCCCCO[C@@H]1O[C@H](COS(=O)(=O)O)[C@@H](OS(=O)(=O)O)[C@H](O[C@@H]2O[C@H](COS(=O)(=O)O)[C@@H](OS(=O)(=O)O)[C@H](O[C@@H]3O[C@H](COS(=O)(=O)O)[C@@H](OS(=O)(=O)O)[C@H](O[C@@H]4O[C@H](COS(=O)(=O)O)[C@@H](OS(=O)(=O)O)[C@H](O[C@@H]5O[C@H](COS(=O)(=O)O)[C@@H](OS(=O)(=O)O)[C@H](OS(=O)(=O)O)[C@H]5OS(=O)(=O)O)[C@H]4OS(=O)(=O)O)[C@H]3OS(=O)(=O)O)[C@H]2OS(=O)(=O)O)[C@H]1OS(=O)(=O)O |  | >1000 µg/mL |
| Cc1cc(OCC(=O)Nc2ccc(S(N)(=O)=O)cc2Cl)cc(Oc2cc(Cl)cc(C#N)c2)c1 | microscopy | >20 µM |
| O=C1CSC(c2cc(Cl)cc(Cl)c2)N1Cc1ccco1 |  | 42.16 µM |
| CC1=C[C@@H]([C@H]2O[C@@H]3Cc4c(ccc5c4C=C[C@H]4C(C)(C)O[C@@H]6CC(=O)O[C@@]64C5)[C@@H]3[C@@H]2C)OC1=O | MTT | ~120 µg/mL |
| N#Cc1cc(Cl)cc(Oc2cc(OCc3nc4cccc(Cl)c4o3)ccc2Cl)c1 | microscopy | >20 µM |
| O=c1[nH]c(=O)c2nc(-c3ccccn3)c(-c3ccccn3)nc2[nH]1 | MTT / absorbance | 103 µM |
| O=C(CC1Nc2ccccc2S(=O)(=O)n2cccc21)OCc1ccc(Cl)cc1 |  | 48 µM |
| O=C(NNCCO)c1[nH]c2ccc(Cl)cc2c1Sc1ccccc1 | MTT | 70 µM |
| Fc1cccc(-c2nc(-c3nnc(C45CCC6CC(CC4C6)C5)o3)cs2)c1 | MTT | >125 µM |
| Cc1ccccc1Sc1c(C(=O)NNCCO)[nH]c2ccc(Cl)cc12 | MTT | 21 µM |
| CN(C)c1ncnc2c1ncn2[C@@H]1O[C@H](CO)C[C@@H]1N=[N+]=[N-] |  | 80.7 µg/mL |
| COc1cc(/C=C/c2nc(NC(=S)Nc3ccc(Cl)cc3)c3ccccc3n2)cc(OC)c1OC | MTT | 1.73 µg/mL |
| NC1=NC(N)c2nc(-c3ccccn3)c(-c3ccccn3)nc2N1 | MTT / absorbance | 10.52 µM |
| COc1ccc(/C=C(/C#N)n2nc3ccccc3n2)cc1OC |  | >100 µM |
| CC(=O)c1ccc(C)cc1NC(C(N)=O)c1c(Cl)cccc1Cl |  | 710 µM |
| NC(=O)c1[nH]c2ccc(Cl)cc2c1S(=O)(=O)c1ccccc1 | MTT | 84 µM |
| CN1C(=O)c2cccn2S(=O)(=O)c2cc(Cl)ccc21 |  | >200 µM |
| N#C/C(=C\c1ccccc1C(F)(F)F)n1nnc2ccccc21 |  | 5 µM |
| NC(=O)[C@H](Nc1ccccc1[N+](=O)[O-])c1c(Cl)cccc1Cl |  | 82 µM |

A second listing of 10 rows from above:

{"SMILES": "CS(=O)(=O)c1ccc2c(c1)CCN2C(=O)COc1ccc(Cl)c(Oc2cc(Cl)cc(C#N)c2)c1", "read by": "microscopy", "value": ">20 µM"}
{"SMILES": "Cc1ccccc1S(=O)(=O)c1c(C(=O)NCCO)[nH]c2ccc(Cl)cc12", "read by": "MTT", "value": ">100 µM"}
{"SMILES": "N#CCC1Nc2ccccc2S(=O)(=O)n2cccc21", "value": ">366 µM"}
{"SMILES": "CCOC(=O)c1cccn1S(=O)(=O)c1cc(Cl)ccc1NC(=O)Oc1ccc(C)cc1", "value": ">200 µM"}
{"SMILES": "[N-]=[N+]=N[C@H]1C[C@@H](CO)O[C@H]1n1cnc2c(NC3CCCCC3)ncnc21", "value": ">125 µg/mL"}
{"SMILES": "c1ccc(C2SCc3nc4ccccc4n32)cc1", "value": "19.2 µM"}
{"SMILES": "Cc1ccnc2c1NC(=O)c1cccnc1N2C1CC1", "read by": "MTT", "value": ">4 µg/mL"}
{"SMILES": "O=C(CC1Nc2ccccc2S(=O)(=O)n2cccc21)Oc1ccc(Cl)cc1", "value": "185 µM"}
{"SMILES": "O=C(OCc1ccccc1)N(Cc1ccccc1)CC(O)C(Sc1ccccc1)N(Cc1ccccc1)C(=O)OCc1ccccc1", "value": "100 µM"}
{"SMILES": "N#Cc1cc(Cl)cc(Oc2cc(F)c(Cl)c(OCc3nnc4n(O)cccc3-4)c2)c1", "read by": "microscopy", "value": ">20 µM"}